Here are results for three substances from patent US20250115889.

What all share (test): column 'Multimer [yes/no]'; self-association
Data set [1] has as its system KKDAK1nKK.
In data set [2] the test system is KDcAK1nK-4S-AVQP.
Data set [3] relates to KDAK1nK-4S-AVQP.

On to KKDAK1nKK, for which, in data set [1], the result is recorded as “binds”.

As to KDcAK1nK-4S-AVQP, the result in data set [2] was “no binding”.

As for KDAK1nK-4S-AVQP, the result in data set [3] is on record as “no binding”.
